Series [1] concerns Norovirus group 2 capsid antigen virus-like particle (NoV VLP). Nature of the series: fluorescence recovery from graphene oxide quenching. The note with it: 5 uM aptamer, 0.05 mg/mL GO, 129 ng/mL VLP.
Series [2] shares this test system. Nature of the series: fluorescence recovery from MWCNT quenching. Conditions: 5 uM aptamer, 0.1 mg/mL MWCNT, 129 ng/mL VLP.

These results are taken from article doi:10.1101/162396.

The exact form of at least one protein or probe is not confirmed.

As for “AGTATACGTATTACCTGCAGCCCATGTTTTGTAGGTGTAATAGGTCATGTTAGGGTTTCTGCGATATCTCGGAGATCTTGC [6-FAM norovirus aptamer]”, the binding result in series [1] and in series [2] was “binds” in each case.
